Anti-infective test results gathered from many reports (values: NIAID ChemDB through PubChem).

All rows: host cell toxicity; cell line: HEK 293; endpoint: CC50

CCn: concentration that lowers growth or viability of the cells by n%. Blank or dashed fields: not listed here. Lines come from different laboratories, so protocols vary.

SMILES | method | result
C[C@@H]1CCC2[C@@H](C)[C@@H](OCCN3CCCCC3)O[C@@H]3OC4(C)CCC1[C@@]23OO4 | ATP / luminescence | >31.7 µM
NCCC1=c2c(O)c3c(c(O)c2N=C1)=NC=CS3(=O)=O.O=C(O)C(F)(F)F | resazurin / fluorescence | 3.9 µM
Cc1ccc(/C=C/C=C/C(=O)[Se]c2ccccc2)cc1 | WST | >100 µM
Nc1nc2ccc(N(Cc3cccc(Oc4ccccc4)c3)Cc3cccc(Oc4ccccc4)c3)cc2[nH]1 |  | 4 µM
C/C=C/c1ccc2c(c1)[C@H](C)[C@@H](c1ccc(O)cc1)O2 | sulforhodamine / absorbance | 41.7 µM
COc1ccc(-c2cc(OC)c(O)c(OC)c2O)cc1 | sulforhodamine / absorbance | >50 µM
O=C(O)C(=O)CC(=O)c1cc(OCc2ccccc2)cc(OCc2ccccc2)c1 |  | >100 µM
O=c1oc2c(O)c(O)cc3c(=O)oc4c(O)c(O)cc1c4c23 | ATP | >26 µM
C[C@H]1C(OC(=O)c2ccc([N+](=O)[O-])cc2)O[C@@H]2OC3(C)CCC4[C@H](C)CCC1[C@]42OO3 | ATP / luminescence | >23.8 µM
Cc1cc(N)c2nc(N)[nH]c2c1 |  | >100 µM
CC(C)=CC[C@H]1C[C@@]2(C[C@H]3CCC(C)(C)C=C3C)C(=O)[C@](C(=O)c3ccccc3)(C(=O)C3=C2OC(C)(C)CC3)C1(C)C | sulforhodamine / absorbance | >50 µM
CC(CCN(CCC(C)c1ccccc1)c1ccc2nc(N)[nH]c2c1)c1ccccc1 |  | 11 µM
Nc1ccn([C@@H]2CS[C@H](CO)O2)c(=O)n1 | WST | >100 µM
COc1cc(O)cc2oc3cc(O)c(O)cc3c(=O)c12 | sulforhodamine / absorbance | >50 µM
CC[C@H](CC[C@@H](C)[C@H]1CCC2C3CC=C4C[C@@H](O)CC[C@]4(C)[C@@]3(C)CC[C@@]21C)C(C)C | ATP | >26 µM
N=C(N)c1ccc2cc(OCCc3ccc(N)cc3)ccc2c1 |  | 48 µM
COc1cc(-c2ccccc2)c(O)c(OC)c1O | sulforhodamine / absorbance | >50 µM
CCC(=O)OC1O[C@@H]2OC3(C)CCC4[C@H](C)CCC([C@H]1C)[C@]42OO3 | ATP / luminescence | >26 µM
OC1C(O)C(O)C(O)C(O)C1O | ATP | >26 µM
NCCC1=c2c(O)c3c(c(O)c2N=C1)=NCCS3(=O)=O.O=C(O)C(F)(F)F | resazurin / fluorescence | >40 µM
CC(C)=CC[C@H]1C[C@@]2(C[C@H]3CCC(C)(C)C=C3C)C(=O)[C@](C(=O)c3ccccc3)(C(=O)C3=C2OC(C)(C)C=C3)C1(C)C | sulforhodamine / absorbance | >50 µM
C[C@@H]1CCC2[C@@H](C)[C@@H](OCCN3CCNCC3)O[C@@H]3OC4(C)CCC1[C@@]23OO4 | ATP / luminescence | >28.9 µM
CC/C=C\C[C@@H]1[C@@H](CC(=O)OC)CC[C@@H]1O | ATP | >26 µM
O=C(/C=C/C=C/c1ccccc1)[Se]c1ccccc1 | WST | >100 µM
CC/C=C\C[C@@H]1[C@@H](CC(=O)OC)CC[C@H]1O | ATP | >26 µM
C=C/C(C)=C/C[C@H]1C(=C)CCC2[C@@](CCCCCCCCCCCCCCCCCCCC)(C(=O)O)CCC[C@@]21C |  | 152.6 µg/mL
Cn1cc2c3c1C(=O)c1[nH]cc(-c4ccc(O)cc4)c1C3=[N+](C)CC2 | resazurin | 3.6 µM
CC/C=C\C[C@H]1C(=O)CC[C@@H]1CC(=O)O | ATP | >26 µM
CN1CCc2c[nH]c3c2C1=CC(=O)C3=O | resazurin | >120 µM
CC(C)=CCC/C(C)=C/CC/C(C)=C/CC[C@@]1(C)CCc2cc(O)cc(C)c2O1 | ATP | >26 µM

For reference, 3 entries again:

| SMILES | method | result |
|---|---|---|
| Cn1cc2c3c1C(=O)c1[nH]cc(-c4ccc(O)cc4)c1C3=[N+](C)CC2 | resazurin | 3.6 µM |
| CC/C=C\C[C@H]1C(=O)CC[C@@H]1CC(=O)O | ATP | >26 µM |
| CC/C=C\C[C@@H]1[C@@H](CC(=O)OC)CC[C@@H]1O | ATP | >26 µM |